Target: human Nav1.7 (human), Q15858
Test: cell-based or functional assay

## GPQCQKWMQTCDRERKCCEGFVCTLWCRKKLG (modifications not checked) [NV1G1892]
  Nav1.7 IC50 (nM), FLIPR Tetra membrane depolarization: 112 nM

Source: US20160287666A1
